# Where two headings read alike, the source gives them in different places. Starred links: 1 amine or outer side, 2 acyl side, 3 side chain; linkers in the order of their positions; H or OH if unused. Positions of bridges follow the written chain, without caps; N, C: chain ends. Non-standard residues stand in square brackets, D forms with d. Residues, ends and D or L forms follow the SMILES beside them. *: point of attachment. pTerphenylCO(4''-OnC5H11) = CCCCCOc1ccc(-c2ccc(-c3ccc(C(=O)*)cc3)cc2)cc1; Orn(4R-OH,5R-OH) = O=C([C@H](C[C@@H](O)[C@@H](O)N[*:3])N[*:1])[*:2]; hTyr(3S-OH,4S-OH) = N[C@H](C(=O)O)[C@H](O)[C@@H](O)c1ccc(O)cc1; Pro(3S-OH,4S-Me) = C[C@H]1CN[C@H](C(=O)O)[C@H]1O; Hyp = O=C(O)[C@@H]1C[C@@H](O)CN1
# Tested on: SFTSV virions
# Design: species or system severe fever with thrombocytopenia syndrome virus
# Conditions: 37 °C, 1 h
smiles,measurement,setting,value
"CCCCCOc1ccc(-c2ccc(-c3ccc(C(=O)N[C@H]4C[C@@H](O)[C@@H](O)NC(=O)[C@@H]5[C@@H](O)[C@@H](C)CN5C(=O)[C@H]([C@@H](C)O)NC(=O)[C@H]([C@H](O)[C@@H](O)c5ccc(O)cc5)NC(=O)[C@@H]5C[C@@H](O)CN5C(=O)[C@H]([C@@H](C)O)NC4=O)cc3)cc2)cc1 [Anidulafungin, anidulafungin] ({pTerphenylCO(4''-OnC5H11)}-[Orn(4R-OH,5R-OH)]T[Hyp][hTyr(3S-OH,4S-OH)]T[Pro(3S-OH,4S-Me)]; lactam 1-C)",diameter of SFTSV virions,20 μM,approximately 80 nm
same,diameter of SFTSV virions,50 μM,90–100 nm
same,diameter of SFTSV virions,100 μM,110–120 nm
